# In PubChem BioAssay AID488895 (Broad Institute, 2010):
# The list shows a part of the results, in another mix than the full data. Active and inactive are the calls of the source.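 How the source made its calls: active means mean replicate inhibition at least 50% and at least half of replicates individually reaching 50%; inconclusive means only one of the two criteria met; inactive means neither criterion met.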
# Experiment: blockers of twin-arginine translocation in E. coli – MC4100, TorA-mCherry reporter, fluorescence, single point, primary screen (AID 488895);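 further: exported cargo escapes ClpAP degradation while cytoplasmic cargo is degraded and loses fluorescence; 0% = median of neutral control wells and 100% = median of NaSCN control wells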
# Details: E. coli MC4100 TorA-mCherry Tat export, at 10 µM, stronger effect = higher value
row,SMILES,inhibition
1,O=C(NCC1(N2CCCCC2)CCCCC1)c1ccc(Cl)nc1,inactive: -1.01%
2,Cc1cc(C)cc(N(C(=O)c2ccccc2)C2CCN(C(=O)OC(C)(C)C)CC2)c1,inactive: 8.12%
3,O=C(NCC1(N2CCOCC2)CCCCC1)c1cc2ccccc2o1,inactive: 3.67%
4,O=C(NCC1(N2CCCCC2)CCCCC1)c1ccc(Cl)s1,inactive: -2.28%
5,N#CC1(Nc2ccccc2)CCN(Cc2ccccc2)CC1,inactive: 0.131%
6,O=C(OC1CN2CCC1CC2)C1c2ccccc2Oc2ccccc21 (stereo not drawn),inactive: -10%
7,COc1ccc(Cl)cc1C(=O)NCC1(N2CCOCC2)CCCCC1,inactive: -0.78%
8,CCOC(=O)N1CCC(Nc2ccc(OC)cc2)CC1,inactive: 8.38%
9,COc1ccc(C(=O)NCC2(N3CCCCC3)CCCCC2)cc1,inactive: -5.4%
10,COc1ccc(C(=O)NCC2(N3CCCCC3)CCCCC2)c(OC)c1OC,inactive: -7.03%
11,CC(C)(C)OC(=O)N1CCC(N(C(=O)c2ccccc2)c2ccc(F)cc2)CC1,inactive: -2.41%
12,O=C(NCC1(N2CCCCC2)CCCCC1)c1ccc(=O)[nH]c1,inactive: 0.161%
13,O=C(NCC1(N2CCCCC2)CCCCC1)c1cccs1,inactive: -3.22%
14,CSc1ccccc1C(=O)NCC1(N2CCCCC2)CCCCC1,inactive: -2.95%
15,Cc1cccc(NC2(C#N)CCN(Cc3ccccc3)CC2)c1,inactive: 2.4%
16,CCOC(=O)N1CCC(Nc2cccc(C)c2)CC1,inactive: -8.35%
17,COc1cc(C(=O)NCC2(N(C)C)CCCCC2)ccc1OC(F)F,inactive: -3.79%
18,O=C1CCN(Cc2ccccc2)CC1,inactive: 3.87%
19,CCOc1ccc(C)cc1CN(CCCl)CCCl,inactive: 10.8%
20,O=P1(N(CCCl)CCCl)SCCCS1,inactive: 5.32%
21,CCCCOc1ccc(C(=O)NCC2(N3CCOCC3)CCCCC2)cc1,inactive: 10.5%
22,COc1ccc(NC2CCN(CCc3ccccc3)CC2)c(OC)c1,inactive: -13.1%
23,CCOC(=O)N1CCC(Nc2ccc(F)cc2)CC1,inactive: -7.36%
24,O=C(NCC1(N2CCCCC2)CCCCC1)c1cccc(C(F)(F)F)c1,inactive: 1.95%
25,COc1cc(C(=O)NCC2(N3CCCCC3)CCCCC2)ccc1OC(F)F,inactive: 6.65%

row,SMILES,inhibition
1,O=C(NCC1(N2CCOCC2)CCCCC1)c1cc(=O)[nH]c2ccccc12,inactive: 1.98%
2,CN1CCN(CCOC(=O)C(O)(c2ccccc2)c2ccccc2)CC1,inactive: -3.95%
3,COc1ccc(NC2CCN(C(=O)OC(C)(C)C)CC2)cc1,inactive: -1.53%
4,CC(C)c1ccc(C(=O)NCC2(N3CCOCC3)CCCCC2)cc1,inactive: 2.02%
5,O=C(NCC1(N2CCCCC2)CCCCC1)c1ccc(OC(F)F)cc1,inactive: -5.78%
6,CCN1CCC(Nc2ccc(Cl)cc2)CC1,inactive: 0.578%
7,N#CC1(Nc2ccccc2)CCN(CCc2ccccc2)CC1,inactive: -7.31%
8,O=C(NCC1(N2CCCCC2)CCCCC1)c1cccc([N+](=O)[O-])c1,inactive: 5.32%
9,CSc1ccc(C(=O)NCC2(N3CCOCC3)CCCCC2)cc1,inactive: -6.04%
10,CN1CCC(Nc2cccc(F)c2)CC1,inactive: -11.3%
11,O=C(NCC1(N2CCCCC2)CCCCC1)c1cncc(Br)c1,inactive: -1.73%
12,CCCOc1ccc(C(=O)NCC2(N(C)C)CCCCC2)cc1OC,inactive: -8.26%
13,CC(C)c1ccc(NC2CCN(C(=O)OC(C)(C)C)CC2)cc1,inactive: 1.62%
14,COc1ccc(CN(CCCl)CCCl)cc1Cl,inactive: -1.77%
15,CN(C)c1cccc(C(=O)NCC2(N3CCCCC3)CCCCC2)c1,inactive: -5.28%
16,COc1cc(OC)c(C(=O)NCC2(N(C)C)CCCCC2)cc1OC,inactive: -12.1%
17,O=C(NCC1(N2CCOCC2)CCCCC1)c1cc(F)c(F)cc1Cl,inactive: -7.94%
18,CCOC(=O)N1CCC(Nc2ccc(C)cc2)CC1,inactive: 18%
19,N/C(=N\O)c1c(N)no[n+]1[O-],inactive: -2.22%
20,O=C(OC1CN2CCC1CC2)C1c2ccccc2C=Cc2ccccc21 (stereo not drawn),inactive: -4.6%
21,COc1cc(C(=O)NCC2(N3CCOCC3)CCCCC2)cc(OC)c1C,inactive: -2.62%
22,O=C(NCC1(N2CCOCC2)CCCCC1)c1cc(Br)ccc1Cl,inactive: 5.55%
23,COc1ccc(C(=O)NCC2(N3CCOCC3)CCCCC2)cc1OC,inactive: 8.09%
24,CN(C)C1(CNC(=O)c2cccc(C#N)c2)CCCCC1,inactive: 2.1%
25,c1ccc(CN2CCC(Nc3ccccc3)CC2)cc1,inactive: -0.16%

row,SMILES,inhibition
1,CCCN1CCC(Nc2cc(OC)cc(OC)c2)CC1,inactive: -0.145%
2,Cc1cc(N(CCCl)CCCl)ccc1C=O,inactive: 4.19%
3,N#Cc1ccc(C(=O)NCC2(N3CCCCC3)CCCCC2)cc1,inactive: 0.803%
4,CC(C)(C)OC(=O)N1CCC(N(C(=O)c2ccccc2)c2ccc(Cl)cc2)CC1,inactive: 21.1%
5,Cc1ccccc1NC1(C#N)CCN(Cc2ccccc2)CC1,inactive: -0.047%
6,CCN1CCC(Nc2cccc(F)c2)CC1,inactive: -5.57%
7,O=C(NCC1(N2CCCCC2)CCCCC1)c1ccco1,inactive: 4.13%
8,CN(C)c1ccc(C(=O)NCC2(N3CCCCC3)CCCCC2)cc1,inactive: -7.62%
9,Cn1c(=O)[nH]cc(N(CCCl)CCCl)c1=O,inactive: -5.33%
10,CC(=O)N(c1ccccc1)C1CCNCC1,inactive: -1.53%
11,COc1cc(OC)cc(C(=O)NCC2(N3CCCCC3)CCCCC2)c1,inactive: -5.42%
12,Cc1ccc(C(=O)NCC2(N3CCCCC3)CCCCC2)o1,inactive: 6.09%
13,Fc1ccccc1NC1CCN(Cc2ccccc2)CC1,inactive: -3.1%
14,Cc1ccc(NC2(C#N)CCN(Cc3ccccc3)CC2)cc1,inactive: 0.763%
15,COc1cc(OC)cc(C(=O)NCC2(N3CCOCC3)CCCCC2)c1,inactive: -1.14%
16,COc1cccc(C(=O)N(c2cc(C)cc(C)c2)C2CCN(C(=O)OC(C)(C)C)CC2)c1,inactive: -1.17%
17,CCC(CO)(C(=O)OC1CN2CCC1CC2)c1ccccc1 (stereo not drawn),inactive: 4.18%
18,CN1CCC(Nc2ccc(Cl)cc2)CC1,inactive: 1.36%
19,CCOc1ncccc1C(=O)NCC1(N2CCOCC2)CCCCC1,inactive: 2.02%
20,CN1CCC(Nc2ccc(F)c(Cl)c2)CC1,inactive: 29.5%
21,CC(C)(C)OC(=O)N1CCC(Nc2ccccc2)CC1,inactive: 9.12%
22,O=C(O)C1(Nc2ccccc2)CCN(Cc2ccccc2)CC1,inactive: -3.56%
23,CCCOc1ccc(C(=O)NCC2(N(C)C)CCCCC2)cc1,inactive: 20.2%
